Compound potency records, mixed from different reports. Data source: NIAID ChemDB in PubChem.

All rows: tests in culture; agent: HIV-2; measure: EC50

ECn is the concentration giving n% inhibition of infection, replication or growth. Conditions beyond the fields shown may differ between rows. Blank or dashed fields: not listed here.

smiles	cells	method	strain	result
Cc1cn([C@H]2C[C@H](N=[N+]=[N-])[C@@H](CN3C(=O)c4ccc([N+](=O)[O-])cc4C3=O)O2)c(=O)[nH]c1=O	CEM + CEM TK-	syncytia	ROD	>200 µM
Cc1ccc(CN2C(=O)CSC2c2c(F)cccc2Cl)o1	MT-4	cytopathic effect	ROD	15.1 µM
Cc1cn([C@H]2C[C@H](N=[N+]=[N-])[C@@H](CO)O2)c(=O)[nH]c1=O	PBMC	ELISA	2300	0.013 µM
O=C1CSC(c2c(Cl)cccc2Cl)N1C1CCCCC1	MT-4	cytopathic effect	ROD	1.54 µM
Cc1cn([C@H]2C=C[C@@H](COP3(=O)Oc4ccccc4C(C)O3)O2)c(=O)[nH]c1=O	CEM + CEM/O	cytopathic effect / syncytia	ROD	0.34 µM
Cc1cn([C@@H]2C[C@@H](N=[N+]=[N-])[C@H](COC(=O)OC[C@H]3O[C@@H](n4cc(C)c(=O)[nH]c4=O)C[C@@H]3N=[N+]=[N-])O2)c(=O)[nH]c1=O	MT-4	cytopathic effect / MTT	ROD	0.0017 µM
CSC[C@H](NC(=O)COc1cccc2cnccc12)C(=O)N[C@@H](Cc1ccccc1)[C@H](O)C(=O)N1CSC(C)(C)[C@H]1C(=O)NC(C)(C)C	ATH8	trypan blue	ROD	0.1 µM
C/C=C(\C)CC/C=C(\C)CC/C=C(\C)CC/C=C(\C)CC/C=C(\C)CC/C=C(\C)CC/C=C(\C)CC/C=C(\C)CC/C=C(\C)Cn1c(C(=O)c2cccc3ccccc23)c(C(C)C)c(=O)[nH]c1=O	MT-4	cytopathic effect / MTT	ROD	>72.01 µM
CCOC(=O)CC1OP(=O)(OC[C@@H]2C=C[C@H](n3cc(C)c(=O)[nH]c3=O)O2)Oc2ccccc21	CEM + CEM/O	cytopathic effect / syncytia	ROD	0.33 µM
O=C1CSC(c2c(Cl)cccc2Cl)N1c1cccc(C(F)(F)F)c1	MT-4	cytopathic effect	ROD	3.09 µM
Cc1cc(C)c(Nc2nc(NC3CCN(Cc4cccnc4)CC3)nc3nc[nH]c23)c(C)c1	MT-4	MTT	ROD	>132 µM
Cc1cn([C@H]2C[C@H](N=[N+]=[N-])[C@@H](CN3C(=O)c4c(Cl)c(Cl)c(Cl)c(Cl)c4C3=O)O2)c(=O)[nH]c1=O	CEM + CEM TK-	syncytia	ROD	>180 µM
C1CNCCNCC(C2CNCCNCCCNCCNC2)CNCCNC1	MT-4	cytopathic effect / MTT	ROD	>200 µg/mL
CC(C)c1c(C(=O)c2cccc3ccccc23)n(Cc2ccccc2)c(=O)[nH]c1=O	MT-4	cytopathic effect / MTT	ROD	>33.54 µM
CC(C)=CCN1Cc2cccc3[nH]c(=S)n(c23)C[C@@H]1C	CEM + CEM-SS	cytopathic effect / XTT		>35 µM
C#CCn1c(C(=O)c2cccc3ccccc23)c(CC)c(=O)[nH]c1=O	MT-4	cytopathic effect / MTT	ROD	>4.82 µM
Cc1cn([C@@H]2O[C@H](CO[Si](C)(C)C(C)(C)C)C3(OS(=O)(=O)C=C3N)[C@H]2O[Si](C)(C)C(C)(C)C)c(=O)n(CC(=O)N[C@H](C(=O)OCc2ccccc2)C(C)C)c1=O	MT-4	cytopathic effect / trypan blue	ROD	>50 µM
COC(=O)CC(OP(=O)(OC[C@@H]1C=C[C@H](n2cc(C)c(=O)[nH]c2=O)O1)OC(CC(=O)OC)c1ccccc1)c1ccccc1	CEM + CEM/O	cytopathic effect / syncytia	ROD	8 µM
Cc1cn([C@H]2C[C@H](N=[N+]=[N-])[C@@H](COC(=O)c3cccnc3)O2)c(=O)[nH]c1=O	CEM	syncytia	ROD	0.1 µg/mL
Cc1c(Sc2ccccc2)n(COCCO)c(=O)[nH]c1=O	MT-4	cytopathic effect / MTT	ROD	>405.8 µM
O=c1[nH]cccc1O	CEM	syncytia	ROD	22 µg/mL
C=COC(=O)OC[C@@H]1C=C[C@H](n2cc(C)c(=O)[nH]c2=O)O1	MT-4	cytopathic effect / MTT	ROD	0.057 µM
Cc1ccnc2c1NC(=O)c1cccnc1N2C1CC1	MT-4	MTT	ROD	>15.02 µM
CC(C)c1c(C(=O)c2cccc3ccccc23)n(C/C=C/c2ccccc2)c(=O)n(C/C=C/c2ccccc2)c1=O	MT-4	cytopathic effect / MTT	ROD	>129 µM
Cc1cc(C)c(Nc2nc(NC3CCN(Cc4ccc(Br)cc4)CC3)nc3nc[nH]c23)c(C)c1	MT-4	MTT	ROD	>11.45 µM
CC(C)NCC(O)c1ccc(O)c(O)c1	CEM	syncytia	ROD	22 µg/mL
Cc1cn([C@H]2C[C@H](N=[N+]=[N-])[C@@H](CN3C(=O)c4ccccc4C3=O)O2)c(=O)[nH]c1=O	CEM	syncytia	ROD	1.7 µM
Cc1cn([C@@H]2C=C[C@H](COC(=O)OC[C@@H]3C=C[C@H](n4cc(C)c(=O)[nH]c4=O)O3)O2)c(=O)[nH]c1=O	MT-4	cytopathic effect / MTT	ROD	0.33 µM
COC(=O)CC(OP(=O)(OC[C@@H]1C=C[C@H](n2cc(C)c(=O)[nH]c2=O)O1)OC(CC(=O)OC)c1ccc(OC(C)=O)cc1)c1ccc(OC(C)=O)cc1	CEM + CEM/O	cytopathic effect / syncytia	ROD	0.3 µM
CC1=C(C(=O)Nc2ccc(Cl)c(C(=O)OC(C)C)c2)SCCO1	CEM + CEM-SS	cytopathic effect / XTT		>28.1 µM
Cc1cn([C@@H]2O[C@H](CO[Si](C)(C)C(C)(C)C)C3(OS(=O)(=O)C=C3N)[C@H]2O[Si](C)(C)C(C)(C)C)c(=O)n(CC(=O)N[C@@H](C)C(=O)O)c1=O	CEM	syncytia	ROD	25 µM
Cc1cn([C@H]2C[C@H](N=[N+]=[N-])[C@@H](CN3C(=O)c4c(Br)c(Br)c(Br)c(Br)c4C3=O)O2)c(=O)[nH]c1=O	CEM	syncytia	ROD	3.9 µM
CCCOC(=O)c1cc(O)c(O)c(O)c1	CEM	syncytia	ROD	4 µg/mL
Cc1cc(C)c(Nc2nc(NC3CCN(Cc4ccc(C(N)=O)cc4)CC3)nc3nc[nH]c23)c(C)c1	MT-4	MTT	ROD	>23.85 µM
O=C1CSC(c2c(F)cccc2F)N1Cc1ccco1	MT-4	cytopathic effect	ROD	61.5 µM
CCn1cc(C(=O)O)c(=O)c2cc(F)c(N3CCN(c4ccccc4OC)CC3)c(OC(F)F)c21	MT-4	cytopathic effect / MTT	EHO	0.39 µM
COc1ccc(CN2CCC(Nc3nc(Nc4c(C)cc(C)cc4C)c4[nH]cnc4n3)CC2)cc1	MT-4	MTT	ROD	>15.1 µM
CC1SC(c2c(F)cccc2F)N(Cc2ccco2)C1=O	MT-4	cytopathic effect	ROD	30 µM
Cc1cccc2c1OP(=O)(OC[C@@H]1C=C[C@H](n3cnc4c(=O)[nH]cnc43)O1)OC2	CEM + CEM/0			5 µM
C=S(=C)(N)c1ccc(CN2CCC(Nc3nc(Nc4c(C)cc(C)cc4C)c4[nH]cnc4n3)CC2)cc1	MT-4	MTT	ROD	>23.89 µM
C=CCn1c(C(=O)c2cccc3ccccc23)c(C(C)C)c(=O)[nH]c1=O	MT-4	cytopathic effect / MTT	ROD	>37 µM
C1CNCCNCCCNCCNC1	MT-4	cytopathic effect / MTT	ROD	54 µg/mL
Cc1cn([C@H]2C[C@H](N=[N+]=[N-])[C@@H](CO)O2)c(=O)[nH]c1=O	MT-4	cytopathic effect / MTT	ROD	0.0007 µM
CCc1c(Sc2ccccn2)n(COCc2ccccc2)c(=O)[nH]c1=O	CEM + CEM-SS	cytopathic effect / XTT		>2.7 µM

Repeating the final 6 entries:

smiles | cells | method | strain | result
Cc1cccc2c1OP(=O)(OC[C@@H]1C=C[C@H](n3cnc4c(=O)[nH]cnc43)O1)OC2 | CEM + CEM/0 |  |  | 5 µM
C=S(=C)(N)c1ccc(CN2CCC(Nc3nc(Nc4c(C)cc(C)cc4C)c4[nH]cnc4n3)CC2)cc1 | MT-4 | MTT | ROD | >23.89 µM
C=CCn1c(C(=O)c2cccc3ccccc23)c(C(C)C)c(=O)[nH]c1=O | MT-4 | cytopathic effect / MTT | ROD | >37 µM
C1CNCCNCCCNCCNC1 | MT-4 | cytopathic effect / MTT | ROD | 54 µg/mL
Cc1cn([C@H]2C[C@H](N=[N+]=[N-])[C@@H](CO)O2)c(=O)[nH]c1=O | MT-4 | cytopathic effect / MTT | ROD | 0.0007 µM
CCc1c(Sc2ccccn2)n(COCc2ccccc2)c(=O)[nH]c1=O | CEM + CEM-SS | cytopathic effect / XTT |  | >2.7 µM